Reference: patent US20220105150A1, “AMPHIPATHIC ALPHA-HELICAL ANTIMICROBIAL PEPTIDES TREAT INFECTIONS BY GRAM-NEGATIVE PATHOGENS” (priority 2019, published 2022)

Tested on: Acinetobacter baumannii versus human red blood cells
Assay: Therapeutic index (HC50/MICGM)
Conditions: for T.I.: HC50 (μM)/MICGM (μM), seven A. baumannii strains; for T.I. Fold Decrease: same peptide with and without specificity determinants

SMILES | T.I. | T.I. Fold Decrease
CC(=O)N[C@H](CCCCN)C(=O)N[C@H](CC(C)C)C(=O)N[C@H](CCN)C(=O)N[C@H](CO)C(=O)N[C@H](CC(C)C)C(=O)N[C@H](CC(C)C)C(=O)N[C@H](CCN)C(=O)N[C@@H](C(=O)N[C@H](CC(C)C)C(=O)N[C@H](CO)C(=O)N[C@H](CCN)C(=O)N[C@H](C)C(=O)N[C@H](C)C(=O)N[C@H](C)C(=O)N[C@H](C)C(=O)N[C@H](C)C(=O)N[C@H](CC(C)C)C(=O)N[C@H](CCN)C(=O)N[C@@H](C(=O)N[C@H](CC(C)C)C(=O)N[C@H](CC(C)C)C(=O)N[C@H](CCN)C(=O)N[C@H](C)C(=O)N[C@H](CC(C)C)C(=O)N[C@H](CO)C(=O)N[C@H](CCN)C(N)=O)[C@H](C)O)[C@H](C)O [D86(K13A/K16A)-(Lys^1-6Dab-1), Ac-KL(Dab)SLL(Dab)TLS(Dab)AAAAAL(Dab)TLL(Dab)ALS(Dab)-amide] | 8.6 | >−86.3
CC(=O)N[C@H](CCCCN)C(=O)N[C@H](CC(C)C)C(=O)N[C@H](CN)C(=O)N[C@H](CO)C(=O)N[C@H](CC(C)C)C(=O)N[C@H](CC(C)C)C(=O)N[C@H](CN)C(=O)N[C@@H](C(=O)N[C@H](CC(C)C)C(=O)N[C@H](CO)C(=O)N[C@H](CN)C(=O)N[C@H](C)C(=O)N[C@H](C)C(=O)N[C@H](C)C(=O)N[C@H](C)C(=O)N[C@H](C)C(=O)N[C@H](CC(C)C)C(=O)N[C@H](CN)C(=O)N[C@@H](C(=O)N[C@H](CC(C)C)C(=O)N[C@H](CC(C)C)C(=O)N[C@H](CN)C(=O)N[C@H](C)C(=O)N[C@H](CC(C)C)C(=O)N[C@H](CO)C(=O)N[C@H](CN)C(N)=O)[C@H](C)O)[C@H](C)O [D105(K13A/K16A)-(Lys^1-6Dap-1), Ac-KL(Dap)SLL(Dap)TLS(Dap)AAAAAL(Dap)TLL(Dap)ALS(Dap)-amide] | 2.2 | >−435.0
